Measured values from several laboratories, pooled; numbers as filed in NIAID ChemDB.

All rows: whole-cell or culture tests; organism: Candida albicans; endpoint: MIC50

An empty or dashed field is not shown. A number after MIC or MFC names an inhibition level or a share of isolates. Lines come from different laboratories, so protocols vary.

{"compound": "C/C(=N\\NC(=S)Nc1ccccc1)c1ccc(-n2ccnc2)cc1", "strain or isolate": "ATCC 18804", "method": "broth dilution", "value": ">745 µM"}
{"compound": "C[C@@H](c1ncncc1F)[C@](O)(Cn1cncn1)c1ccc(F)cc1F", "strain or isolate": "4054 strains (fluconazole-susceptible)", "value": "0.007 µg/mL"}
{"compound": "CC(C)=CCC/C(C)=C/CO", "strain or isolate": "ATCC 90028", "method": "broth dilution", "value": "4000 µg/mL"}
{"compound": "CCC(C)n1ncn(-c2ccc(N3CCN(c4ccc(OC[C@H]5CO[C@](Cn6cncn6)(c6ccc(Cl)cc6Cl)O5)cc4)CC3)cc2)c1=O", "strain or isolate": "183 strains", "value": "4 µg/mL"}
{"compound": "COc1cc(OC)c(OC)cc1C=O", "strain or isolate": "ATCC 90028", "method": "broth dilution", "value": "1000 µg/mL"}
{"compound": "COc1cc(C[C@H](C)[C@H](C)Cc2ccc(O)c(O)c2)ccc1O", "strain or isolate": "CCC 128-2000", "method": "broth dilution", "value": "15.6 µg/mL"}
{"compound": "CCCCCOc1ccc(-c2ccc(-c3ccc(C(=O)N[C@H]4C[C@@H](O)[C@@H](O)NC(=O)[C@@H]5[C@@H](O)[C@@H](C)CN5C(=O)[C@H]([C@H](C)O)NC(=O)[C@H]([C@H](O)[C@@H](O)c5ccc(O)cc5)NC(=O)[C@@H]5C[C@@H](O)CN5C(=O)[C@H]([C@H](C)O)NC4=O)cc3)cc2)cc1", "strain or isolate": "183 strains", "value": "0.125 µg/mL"}
{"compound": "CC(C)[C@@H]1CC[C@@H](C)C[C@H]1O", "strain or isolate": "ATCC 90028", "method": "broth dilution", "value": ">8000 µg/mL"}
{"compound": "CC(=O)N/N=C/c1ccc(-n2ccnc2)cc1", "strain or isolate": "ATCC 18804", "method": "broth dilution", "value": ">1100 µM"}
{"compound": "CC(C)=CCCC(C)CCO", "strain or isolate": "ATCC 90028", "method": "broth dilution", "value": "4000 µg/mL"}
{"compound": "COC(=O)/C=C1/NN=C(c2ccccn2)N(c2ccccn2)C1=O", "strain or isolate": "Clinical isolate", "method": "agar diffusion", "value": "8 µg/mL"}
{"compound": "C=C(C)C1CC=C(C)CC1", "strain or isolate": "ATCC 90028", "method": "broth dilution", "value": ">8000 µg/mL"}
{"compound": "O=C(N/N=C\\n1ccnc1)c1ccccc1", "strain or isolate": "ATCC 18804", "method": "broth dilution", "value": ">1167 µM"}
{"compound": "CN(C/C=C/C#CC(C)(C)C)Cc1cccc2ccccc12", "strain or isolate": "CI-2", "value": "2 µg/mL"}
{"compound": "C[C@@H](c1nc(-c2ccc(C#N)cc2)cs1)[C@](O)(Cn1cncn1)c1ccc(F)cc1F", "strain or isolate": "4054 strains (fluconazole-susceptible)", "value": "0.007 µg/mL"}
{"compound": "Cc1ccc(C(C)C)cc1", "strain or isolate": "ATCC 90028", "method": "broth dilution", "value": "2000 µg/mL"}

Repeating the final 2 entries:

compound,strain or isolate,method,value
C[C@@H](c1nc(-c2ccc(C#N)cc2)cs1)[C@](O)(Cn1cncn1)c1ccc(F)cc1F,4054 strains (fluconazole-susceptible),-,0.007 µg/mL
Cc1ccc(C(C)C)cc1,ATCC 90028,broth dilution,2000 µg/mL